SMILES strings stand for the structures.

Amino acid sequences for entries named in this document (tags omitted).
UniProt P35499, whole entry: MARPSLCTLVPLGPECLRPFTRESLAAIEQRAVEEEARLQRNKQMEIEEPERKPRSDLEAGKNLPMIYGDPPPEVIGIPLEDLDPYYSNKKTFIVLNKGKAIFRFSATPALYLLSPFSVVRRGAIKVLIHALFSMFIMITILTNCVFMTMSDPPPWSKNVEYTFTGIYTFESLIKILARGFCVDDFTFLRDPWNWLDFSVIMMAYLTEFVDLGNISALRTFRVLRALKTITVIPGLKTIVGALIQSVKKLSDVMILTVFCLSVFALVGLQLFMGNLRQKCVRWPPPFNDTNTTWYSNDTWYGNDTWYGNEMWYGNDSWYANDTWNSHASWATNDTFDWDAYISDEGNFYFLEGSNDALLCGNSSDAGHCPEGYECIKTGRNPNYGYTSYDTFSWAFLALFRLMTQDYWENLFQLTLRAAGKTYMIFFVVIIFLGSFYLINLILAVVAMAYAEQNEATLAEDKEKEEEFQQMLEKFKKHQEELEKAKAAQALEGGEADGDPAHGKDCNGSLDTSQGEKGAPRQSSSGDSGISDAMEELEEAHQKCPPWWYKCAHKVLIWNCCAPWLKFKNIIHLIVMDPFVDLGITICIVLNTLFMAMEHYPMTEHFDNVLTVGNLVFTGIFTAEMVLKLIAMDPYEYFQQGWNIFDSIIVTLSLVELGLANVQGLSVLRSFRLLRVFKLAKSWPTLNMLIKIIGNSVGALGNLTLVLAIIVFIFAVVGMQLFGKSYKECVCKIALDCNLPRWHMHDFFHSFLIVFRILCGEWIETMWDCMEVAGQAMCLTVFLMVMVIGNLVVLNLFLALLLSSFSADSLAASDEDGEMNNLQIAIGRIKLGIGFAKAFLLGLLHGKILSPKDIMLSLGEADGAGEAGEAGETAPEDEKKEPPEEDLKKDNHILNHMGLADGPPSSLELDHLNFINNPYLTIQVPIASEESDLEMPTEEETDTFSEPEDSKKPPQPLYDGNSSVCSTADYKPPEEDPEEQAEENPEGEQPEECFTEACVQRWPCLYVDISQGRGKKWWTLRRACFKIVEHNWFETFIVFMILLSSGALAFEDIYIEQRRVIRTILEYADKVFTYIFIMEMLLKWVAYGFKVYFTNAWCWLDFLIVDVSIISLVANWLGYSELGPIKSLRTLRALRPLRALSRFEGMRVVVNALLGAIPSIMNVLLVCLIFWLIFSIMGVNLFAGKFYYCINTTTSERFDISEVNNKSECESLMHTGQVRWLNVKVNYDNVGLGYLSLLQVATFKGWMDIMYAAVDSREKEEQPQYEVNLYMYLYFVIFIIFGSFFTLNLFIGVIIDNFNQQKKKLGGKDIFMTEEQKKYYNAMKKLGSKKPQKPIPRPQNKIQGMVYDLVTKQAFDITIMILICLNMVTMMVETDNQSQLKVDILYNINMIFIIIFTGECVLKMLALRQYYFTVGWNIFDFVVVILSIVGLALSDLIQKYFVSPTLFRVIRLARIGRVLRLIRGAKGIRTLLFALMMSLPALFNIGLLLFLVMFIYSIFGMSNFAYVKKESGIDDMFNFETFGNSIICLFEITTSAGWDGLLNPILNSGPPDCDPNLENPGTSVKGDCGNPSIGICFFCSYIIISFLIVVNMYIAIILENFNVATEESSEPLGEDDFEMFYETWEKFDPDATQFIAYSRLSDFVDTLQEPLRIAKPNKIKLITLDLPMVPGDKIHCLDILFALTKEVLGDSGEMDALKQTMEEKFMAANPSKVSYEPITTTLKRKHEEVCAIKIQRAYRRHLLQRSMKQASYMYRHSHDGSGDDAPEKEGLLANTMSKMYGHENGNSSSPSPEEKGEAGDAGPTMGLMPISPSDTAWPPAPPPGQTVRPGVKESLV

The assay addresses human NaV1.4 channels (Homo sapiens, UniProt P35499). Briefly: Whole-cell patch clamp, block of depolarization-elicited Na+ inward currents.

In turn, `CC(C)C[C@H](NC(=O)[C@H](CCCNC(=N)N)NC(=O)[C@@H]1CCC(=O)N1)C(=O)N[C@H]1CSSC[C@@H]2NC(=O)[C@H](CCC(N)=O)NC(=O)[C@H](CCCNC(=N)N)NC(=O)[C@H](CO)NC(=O)[C@H](CCCNC(=N)N)NC(=O)[C@@H]3CSSC[C@@H](C(N)=O)NC(=O)[C@H](CSSC[C@H](NC1=O)C(=O)NCC(=O)N[C@@H](Cc1ccccc1)C(=O)N1C[C@H](O)C[C@H]1C(=O)N[C@@H](CCCCN)C(=O)N[C@@H](CO)C(=O)N3)NC(=O)[C@H](CCCNC(=N)N)NC(=O)[C@H](Cc1c[nH]cn1)NC(=O)[C@@H]1C[C@@H](O)CN1C(=O)[C@H](CCCCN)NC2=O` (single isomer, unassigned) gave a half-inhibitory concentration (IC50) of 105 nM. Further, the remaining current component (saturating concentration of 100 µM, HEK293, human NaV1.4) was 7.2 ± 2.2%.
